How the values were obtained:
SEC = target: the molecule itself; test: SEC
[1] = target: the molecule itself; test: cryo-EM structure; apo ClpC1 E288A/F444A/E626A; 3.6 Å; hexamer to protomers

B1: Mycobacterium tuberculosis ClpC1, wild type (enzyme)
chain: not shown
notes: ClpC1 AAA+ unfoldase of Mycobacterium tuberculosis; NTD, D1, middle domain and D2; the UniProt entry is printed in the AlphaFold link; also called WT ClpC1; ClpC1WT
- binding result (SEC): binds

B2: Mycobacterium tuberculosis ClpC1 F444A (enzyme)
chain: not shown
notes: also called MtbClpC1 F444A; F444A mutant
- stoichiometry N (SEC): 6

B3: Mycobacterium tuberculosis ClpC1 E288A/F444A/E626A (enzyme)
chain: not shown
notes: also called MtbClpC1_(E288A/F444A/E626A); MtbClpC1 F444A E288A E626A
- stoichiometry N [1]: 6

Source: article PMC9661721, “Structure of the drug target ClpC1 unfoldase in action provides insights on antibiotic mechanism of action” (The Journal of Biological Chemistry, 2022)
